Here are results for one compound from patent US11725005B2.

Each structure is given as a SMILES string.

This experiment deals with JCV laboratory strain MAD-1. Kind of experiment: JCV antiviral potency in Cos 7 cells. It is filed as cell-based, JC polyomavirus.

As for `Cc1ccc(NC(=O)c2ccc(CN3CCN(C)CC3)cc2)cc1Nc1nccc(-c2cncc(-c3cn[nH]c3)c2)n1`, the “Antiviral activity against JCV” value is recorded as “little antiviral activity”.
